Measured values from several laboratories, pooled; numbers as filed in NIAID ChemDB.

Common to all: whole-cell or culture tests

Blank or dashed fields: not listed here. Zone: diameter of growth inhibition. MIC50, MIC90 and the like: level of inhibition, or share of isolates inhibited. Lines come from different laboratories, so protocols vary.

| structure | strain | organism | method | tested at | read-out | value |
|---|---|---|---|---|---|---|
| CCCCC1OC(=O)C2CC=CCC12 | AM211 | Aspergillus glaucus |  |  | MIC | >350 µg/mL |
| Cc1ccc(N2NOC(=O)C2S(=O)(=O)Nc2ccc(-n3c(-c4ccc([N+](=O)[O-])cc4)nc4ccccc4c3=O)cc2)cc1 | MTCC323 | Aspergillus clavatus | agar diffusion | 250 µg/mL | zone | 23 mm |
| CC(C)N1CCN(c2nc(Cl)nc(NC3CC3)n2)CC1 | MTCC 1323 | Aspergillus clavatus | agar |  | MIC | 100 µg/mL |
| Cc1ccc(N2NOC(=O)C2S(=O)(=O)Nc2nc(-c3ccc([N+](=O)[O-])cc3)cs2)cc1 | MTCC323 | Aspergillus clavatus | broth dilution |  | MIC | 1000 µg/mL |
| C[C@H]1[C@H](O)[C@@H](C)/C=C/C=C/C=C/C=C/C=C/C=C/C=C/[C@H](O[C@@H]2O[C@H](C)[C@@H](O)[C@H](N)[C@@H]2O)C[C@@H]2O[C@](O)(C[C@@H](O)C[C@@H](O)CC[C@H](O)[C@@H](O)C[C@@H](O)CC(=O)O[C@H]1C)C[C@H](O)[C@H]2C(=O)O | 60 isolates | Aspergillus fumigatus |  |  | MIC90 | 0.5 µg/mL |
| CN1CCN(c2nc(NCCNc3ncnc4c(Br)cc(Br)cc34)nc(NC3CC3)n2)CC1 | MTCC 1323 | Aspergillus clavatus | agar |  | MIC | 100 µg/mL |
| O=C(O)c1ccccc1O |  | Aspergillus flavus | agar |  | MIC100 | >1000 µg/mL |
| COc1cccc(C=O)c1O | UAB698 | Aspergillus terreus | agar |  | MIC | 500 µM |
| Cc1nc(Nc2ccccc2)nc(C)c1Br |  | Aspergillus niger |  | 100 µg/mL | zone | 2.5 mm |
| CCCCC1OC(=O)C2CCCCC12 | AM211 | Aspergillus glaucus |  |  | MIC | 246.3 µg/mL |
| CCc1ccc(O)c(OC)c1 |  | Aspergillus flavus | agar |  | MIC100 | 497 µg/mL |
| Cc1nc(Nc2ccccc2)nc2c1C(=N)C(C#N)CN(Cc1ccccc1)C2 |  | Aspergillus niger |  | 50 µg/mL | zone | 1.02 mm |
| Cc1ccc(N2NOC(=O)C2S(=O)(=O)Nc2nc3cc(F)ccc3s2)cc1 | MTCC323 | Aspergillus clavatus | agar diffusion | 250 µg/mL | zone | 23 mm |
| CCc1ccccc1O |  | Aspergillus flavus | agar |  | MIC100 | 207 µg/mL |
| Fc1ccccc1N1CCN(c2nc(Cl)nc(NC3CC3)n2)CC1 | MTCC 1323 | Aspergillus clavatus | agar |  | MIC | 50 µg/mL |
| COc1ccc(Cn2nc(C3CC3)cc2NC(=O)c2cccc(Br)c2)cc1 |  | Aspergillus ochraceus |  |  | MIC | 44 µg/mL |
| O=C1OCC2CCCCC12 | AM211 | Aspergillus glaucus |  |  | MIC | 142.9 µg/mL |
| COc1ccc(Cn2nc(C3CC3)cc2NC(=O)c2ccc(Cl)cc2)cc1 |  | Aspergillus ochraceus |  |  | MIC | 32 µg/mL |
| OC(Cn1cncn1)(Cn1cncn1)c1ccc(F)cc1F | CCAM 080001 | Aspergillus flavus | broth dilution |  | MFC100 | 5 µg/mL |
| CNC1=CC(=O)c2ccccc2C1=O | MTCC 2797 | Aspergillus parasiticus | broth dilution |  | MIC100 | 125 µg/mL |
| C[C@@H]1[C@H](O)[C@@H](C)/C=C/C=C/CC/C=C/C=C/C=C/C=C/C(O[C@H]2O[C@H](C)[C@@H](O)[C@H](N)[C@@H]2O)CC2O[C@](O)(CC(O)C(O)CCC(O)CC(O)CC(O)CC(=O)O[C@H]1C)CC(O)C2C(=O)O | MTCC323 | Aspergillus clavatus | agar diffusion | 250 µg/mL | zone | 26 mm |
| C[C@@H]1[C@H](O)[C@@H](C)/C=C/C=C/CC/C=C/C=C/C=C/C=C/C(O[C@H]2O[C@H](C)[C@@H](O)[C@H](N)[C@@H]2O)CC2O[C@](O)(CC(O)C(O)CCC(O)CC(O)CC(O)CC(=O)O[C@H]1C)CC(O)C2C(=O)O | MTCC 2797 | Aspergillus parasiticus | broth dilution |  | MIC100 | 250 µg/mL |
| COc1ccc2nc(NS(=O)(=O)C3C(=O)ONN3c3ccc(C)cc3)sc2c1 | MTCC323 | Aspergillus clavatus | agar diffusion | 250 µg/mL | zone | 24 mm |
| Cc1cc(CBr)nc(Nc2ccccc2)n1 |  | Aspergillus niger |  | 50 µg/mL | zone | 1.9 mm |
| O=C/C=C/c1ccccc1 | UAB698 | Aspergillus terreus | agar |  | MIC | 500 µM |
| Clc1nc(NC2CC2)nc(N2CCN(C(c3ccccc3)c3ccccc3)CC2)n1 | MTCC 1323 | Aspergillus clavatus | agar |  | MIC | 200 µg/mL |
| Cc1ccc(N2NOC(=O)C2S(=O)(=O)Nc2nc3ccc(F)cc3s2)cc1 | MTCC323 | Aspergillus clavatus | broth dilution |  | MIC | 1000 µg/mL |
| COc1ccccc1C=O | UAB680 | Aspergillus terreus | agar |  | MIC | 2500 µM |
| O=C1C=C(N2CCOCC2)C(=O)c2ccccc21 | MTCC 4893 | Aspergillus ochraceus | broth dilution |  | MIC100 | 125 µg/mL |
| O=C(O)/C=C/c1ccc(O)cc1 |  | Aspergillus flavus | agar |  | MIC100 | >1000 µg/mL |
| O=C1NCC2CCCCC12 | AM211 | Aspergillus glaucus |  |  | MIC | 250 µg/mL |
| CC1CC(C)CN(c2nc(NCCNc3ncnc4c(Br)cc(Br)cc34)nc(NC3CC3)n2)C1 | MTCC 1323 | Aspergillus clavatus | agar |  | MIC | 100 µg/mL |
| O=C(O)c1cc(O)c(O)c(O)c1 |  | Aspergillus flavus | agar |  | MIC100 | >1000 µg/mL |
| Cc1ccc(N2NOC(=O)C2S(=O)(=O)Nc2nc(-c3c(F)cc(Cl)cc3Cl)cs2)cc1 | MTCC323 | Aspergillus clavatus | broth dilution |  | MIC | 1000 µg/mL |
| CN1CCN(c2nc(Cl)nc(NC3CC3)n2)CC1 | MTCC 1323 | Aspergillus clavatus | agar |  | MIC | 200 µg/mL |
| [Al]#[P] |  | Aspergillus terreus | agar |  | MIC | 3 µg/mL |
| Cc1ccc(N2NOC(=O)C2S(=O)(=O)Nc2nc3ccc(C)cc3s2)cc1 | MTCC323 | Aspergillus clavatus | broth dilution |  | MIC | 500 µg/mL |
| CCCCN1C(=O)C2C=CC1C2 | AM211 | Aspergillus glaucus |  |  | MIC | 226.9 µg/mL |
| COc1ccc(Cn2nc(C3CC3)cc2NC(=O)c2ccccc2)cc1 |  | Aspergillus ochraceus |  |  | MIC | 32 µg/mL |